# Screening data, single-dose tests

A: 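Growth of Mycobacterium tuberculosis over 3 days (7H9 medium with glucose and tyloxapol); the read-out is not stated. Compounds at 50 µM. The record gives no direction; compounds that gave an IC50 in retests scored well above the rest, so higher reads as more growth inhibition. Of about 69,000 compounds tested this way, about 760 (1.1%) reached 50% or more in at least one test.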
B: 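Whole-cell growth test on Mycobacterium tuberculosis, read after 4 days in a medium based on cholesterol and the lipid DPPC; the read-out is not stated. Concentration: 50 µM. Higher reads as more growth inhibition (inferred: compounds with an IC50 in retests scored well above the rest). About 69,000 compounds were tested under these conditions; 0.54% (about 370) showed 50% or more at least once.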

Each number is a percent effect as filed. How 0% and 100% were set is not recorded. Most values in the screen are low, and negative values occur. Many other results are left out here, so strong results are more common than in the screen. Two or more numbers in one place are separate tests of the same structure; such repeats can differ widely. A dash means the value is not listed here; it may have been measured.

| # | SMILES | A | B |
|---|---|---|---|
| 1 | `Cc1n[nH]c(C)c1CC(=O)N1CC[C@@](C)(O)[C@@H](Cc2ccccc2)C1` | 9.004 | 6.404 |
| 2 | `CCN(CC1CCOC1)C(=O)c1ccc(N(C)C)cc1F` (centres undefined) | -8.533 | 9.085 |
| 3 | `Cc1n[nH]c(C)c1CCNC(=O)C1CCCN(Cc2ccco2)C1` (centres undefined) | - | 51.32 |
| 4 | `CC(C)C(NC(=O)c1nc(N2CCOCC2)ncc1Cl)c1cccs1` (centres undefined) | -14.93 | - |
| 5 | `CN(Cc1ccc(Br)s1)Cn1nc(-c2ccccc2)oc1=O` | -13.24 | - |
| 6 | `COc1cccc(C2CC(=O)Nc3nc(N4CCOCC4)sc32)c1OC` (centres undefined) | 25.21 and 40.28 | - |
| 7 | `CC(C)N(CCNC(=O)c1[nH]nc2ccc(I)cc12)C(C)C` | - | 80.96 |
| 8 | `CCc1nc(CNc2ccc(F)c(F)c2)no1` | 5.382 | - |
| 9 | `O=C(NCC(F)(F)F)C1CN(C(=O)c2cnccn2)C1` | -1.613 and 68.13 | - |
| 10 | `Nc1nc(CC(=O)N2CCCC(CCc3cccc(F)c3)C2)cc(=O)[nH]1` (centres undefined) | -18.77 | - |
| 11 | `CCN(CC)CC(=O)NCCc1csc(N2CCCC2)n1` | 5.74 | - |
| 12 | `COc1ccc2nnc(C(=O)NC3CCCC3)nc2c1` | 9.297 and 22.12 | - |
| 13 | `Cc1cc(=O)[nH]c(-n2nc(-c3cccs3)cc2N)n1` | 20.57 | - |
| 14 | `CN(C)S(=O)(=O)N1CCCC1CC(=O)c1cccs1` (centres undefined) | 3.176 | 6.003 |
| 15 | `CCc1csc(C2CCCN(C(=O)c3ccccn3)C2)n1` (centres undefined) | 3.27 | - |
| 16 | `Cc1cc(C(=O)N2CCN(c3nc4ccccc4s3)CC2)no1` | - | -36.3 |
| 17 | `CCOc1ccc(NC2CCN(CC(F)(F)F)C2=O)cc1C` (centres undefined) | 4.391 and 8.95 | - |
| 18 | `Cc1nc(-n2nc(-c3cccs3)cc2N)[nH]c(=O)c1C` | 51.09 | - |
| 19 | `CCN1CC2(CC1=O)CN(Cc1cnn(C)c1)CCN(C(=O)C(C)C)C2.O=C(O)C(F)(F)F` (centres undefined) | - | 10.22 and 70.11 |
| 20 | `CC(=O)NCC(Cc1cccc(F)c1)n1cccc1` (centres undefined) | 8.141 and 65.8 | - |
| 21 | `Cl.Nc1cccnc1N1CCCCCC1` | 22.83 and 23.98 | - |
| 22 | `COc1cccc(-c2noc(-c3ccc(NCC(C)O)nc3)n2)c1OC` (centres undefined) | 63.19 | - |
| 23 | `Cc1nnsc1C(=O)NCC1CCN(c2ccccn2)CC1` | -11.2 | - |
| 24 | `Cl.FC(F)(F)c1ccc(-c2cnc(C3CCCN3)cn2)cc1` (centres undefined) | 56.38 | 50.49 and 37.43 |
| 25 | `CC(=O)N1CCCC1c1nnn2cc(Nc3ccccc3)ccc12.O=C(O)C(F)(F)F` (centres undefined) | - | -2.79 and -1.181 |
| 26 | `O=C(NCC1CC1)c1cc(Cl)c2c(c1)OCCCO2` | 15.44 and 18.6 | - |
| 27 | `CCOC(=O)CCC(=O)N1CCC(CSCc2ccco2)CC1` | 51.46 | - |
| 28 | `Clc1ccc(N2CCN(CCCN3CCCCC3)CC2)nc1` | 12.03 and 11.01 | - |
| 29 | `O=C(c1csc(-c2ccco2)n1)N1CCOc2ncccc21` | -4.396 | - |
| 30 | `Cc1cnc(CNC(=O)C2CCOc3ccccc3C2)cn1` (centres undefined) | - | -4.583 |
| 31 | `Cl.O=S(=O)(c1ccc(Cl)cc1)N1CCc2nc(C3CCNCC3)ncc2C1` | 53.63 | 19.64 |
| 32 | `CC(Oc1ccc2c(c1)OCO2)C(=O)Nc1ccon1` (centres undefined) | 6.679 | -17.15 |
| 33 | `O=C(CCN1CCCN(c2nccs2)CC1)NCC1CCCCC1` | -12.03 | - |
| 34 | `CC(C)c1nc(CN2CCCCC2)cs1` | -4.206 | - |
| 35 | `CN(C)[C@H]1C[C@@H](Cc2cc(-c3ccc(F)cc3)on2)C1(C)C` | 17.58 and 59.33 | - |
| 36 | `Cc1cc(N2CCCC(c3[nH]ncc3Cc3ccccc3)C2)nc(N)n1` (centres undefined) | 56.2 | - |
| 37 | `O=C(CC(SC1CCCCC1)C(=O)O)c1ccc(Cl)cc1` (centres undefined) | 9.413 and 8.927 | -0.1851 |
| 38 | `c1cc(-c2ccc3c(c2)CCC32CCNCC2)ccn1` | 21.17 and -49.36 | - |
| 39 | `[H][C@]12CC[C@]([H])(CN(S(C)(=O)=O)C1)N(C(=O)CCc1n[nH]c3c1CCCC3)C2` | -11.95 | - |
| 40 | `COc1cnc(C2(O)CCN(C(=O)c3ccncc3)CC2)c(OC)n1` | - | -13.83 |
| 41 | `COCCN1CCN(CCS(=O)(=O)C(F)(F)F)CC1C` (centres undefined) | -14.29 | -0.9735 |
| 42 | `CCC(=O)N1CCC(Cc2cc(Nc3ncccn3)ncn2)CC1` | - | 2.175 |
| 43 | `N[C@H]1CCCN(S(=O)(=O)c2ccc(C(=O)NCC(F)F)cc2)C1` | - | 83.46 |
| 44 | `Cc1ccc(S(=O)(=O)NCC(C)(C)N)c(F)c1.Cl` | 6.354 | - |
| 45 | `O=C(Nc1ccccc1OC1CCOC1)c1cc[nH]n1` (centres undefined) | -30.56 | - |
| 46 | `CCn1nc(C)c(CNC(=O)c2nnc3ccc(Cl)cc3n2)c1C` | 18.82 | -7.239 |
| 47 | `CC(C)Nc1nc(N2CCCC2)nc2c1CN(c1ncc(F)cn1)CC2` | 35.26 | - |
| 48 | `Cc1nnc(CN(C)CC2CCCCC2)o1` | 44.01 | - |
| 49 | `CNC(=O)CCS(=O)(=O)Cc1cc(Cl)c2c(c1)OCCO2` | -13.27 | 3.991 |
| 50 | `Cc1ncsc1C(=O)NCCc1cccs1` | -5.868 | - |
| 51 | `CCS(=O)(=O)N1CCC(NC(=O)c2cc(C(C)C)ccc2O)CC1` | 34.44 | - |
| 52 | `CC(C)CN1Cc2nc(N3CCCC3)ncc2C1=O` | 71.42 | - |
| 53 | `CC(NCc1ccc(C(N)=O)cc1)c1ccc(Cl)c(Cl)c1.Cl` (centres undefined) | 11.59 | - |
| 54 | `CC(Nc1ccc(Br)cc1)c1nc(C2CC2)no1` (centres undefined) | 52.28 | 67.79 |
| 55 | `Cn1cc(CN2CCC(F)(F)C3(CCN(c4cnccn4)C3)C2)cn1.O=C(O)C(F)(F)F.O=C(O)C(F)(F)F` (centres undefined) | - | 19.04 and 111.4 |
| 56 | `CCN(Cc1cc(F)c(OC)c(Cl)c1)Cc1nc(COC)no1` | 21.34 | - |
| 57 | `Cc1nc(C(Cc2ccsc2)NC(=O)CCN2CCOCC2)sc1C` (centres undefined) | -7.739 | - |
| 58 | `Cc1nn(C)c(C)c1CCC(=O)N1CCc2sccc2C1` | 6.739 | - |
| 59 | `COCCCN(C)C(=O)Cn1cccc(OC)c1=O` | - | -4.166 |
| 60 | `Cc1cnn(CC(=O)NCC2(O)CCCc3ccccc32)c1` (centres undefined) | -7.338 | 3.621 |
| 61 | `CCOc1ccc(N2CCC(C(O)c3ccccc3)CC2)nn1` (centres undefined) | -13.77 | -11.01 |
| 62 | `CS(=O)(=O)NC[C@H]1Cn2c(-c3ccc(F)cc3)cnc2CO1` | -24.89 and 0.3723 | - |
| 63 | `CCc1nc(C)c(C(=O)NCCN2CCCC2)s1` | 0.9306 | - |
| 64 | `CC(c1ccccn1)N(C)C(=O)NCCn1c(=O)oc2ccccc21` (centres undefined) | - | 60.36 |
| 65 | `COc1ccc(C[C@H]2CN(C(=O)c3ncccn3)CC[C@@H]2OC)cc1` | -4.602 | 9.62 |
| 66 | `COC(=O)C(NC(=O)c1ccc(NC2CC2)nc1)c1ccccc1` (centres undefined) | 27.73 and 49.27 | 33.76 |
| 67 | `COc1cccc(CNC(=O)Nc2ccc3[nH]nnc3c2)c1OC` | -5.475 and 53.38 | - |

Once more, the final 4:

SMILES,A,B
CC(c1ccccn1)N(C)C(=O)NCCn1c(=O)oc2ccccc21 (centres undefined),-,60.36
COc1ccc(C[C@H]2CN(C(=O)c3ncccn3)CC[C@@H]2OC)cc1,-4.602,9.62
COC(=O)C(NC(=O)c1ccc(NC2CC2)nc1)c1ccccc1 (centres undefined),27.73 and 49.27,33.76
COc1cccc(CNC(=O)Nc2ccc3[nH]nnc3c2)c1OC,-5.475 and 53.38,-

Data taken from ChEMBL document CHEMBL3988442, “University of Dundee, Small-Polar-MMV Screening Library” (2021).